The assay concerns the target Der p 1 (Dermatophagoides pteronyssinus, UniProt P08176).

Protein sequences, listed by entry. Tags and fused reporters are not part of them. Residues count along the entry.
UniProt P08176, 99-320 limits assumed: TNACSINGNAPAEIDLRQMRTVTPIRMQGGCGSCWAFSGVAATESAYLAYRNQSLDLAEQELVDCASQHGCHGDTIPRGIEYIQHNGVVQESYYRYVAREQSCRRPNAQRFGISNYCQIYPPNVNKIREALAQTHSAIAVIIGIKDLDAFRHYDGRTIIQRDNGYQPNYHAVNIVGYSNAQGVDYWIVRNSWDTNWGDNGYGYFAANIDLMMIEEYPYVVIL

The structures appear in SMILES notation.

The IC50 is the point on the concentration scale where inhibition reaches its midpoint. As for `CC(NC(=O)C(Cc1ccccc1)NC(=O)c1ccccc1)C(=O)NCC(=O)C(=O)NCc1ccccc1` (centres unmarked), the “drop in Der p 1 potency on removal of the P1 substituent” value is listed as 10–20 fold. Further, the IC50 (read-out: IC50 versus Der p 1, tested as mixed diastereomers) is 170 nM.

The values are drawn from publication PMC4257840 (Journal of Medicinal Chemistry, 2014).
